Results of unrelated studies side by side (data: NIAID ChemDB).

All rows: cytotoxicity tests; measure: CC50

An empty or dashed field is not shown. Lines come from different laboratories, so protocols vary. CCn is the concentration with n% toxicity to the cells.

| smiles | cell line | setting | method | value |
|---|---|---|---|---|
| Nc1[nH]n2c(=O)cc(CN3CC[N+]4(CC3)CC[N+]3(CCN(Cc5cc(=O)n6[nH]c(N)c([N+](=O)[O-])c6n5)CC3)CC4)nc2c1[N+](=O)[O-] | K562 | - | - | >70.3 µg/mL |
| COc1cc2c(c3oc(=O)c4c(c13)CCC4=O)C1C=COC1O2 | L-02 | - | - | 3.7 µM |
| O=C1C(=O)c2ccccc2C(O)=C1C1CCC(c2ccc(Cl)cc2)CC1 | Human fibroblast 2C4 | - | MTT | 1360 µM |
| COc1cccc(C2(c3ccccc3)NC(NC(=O)C3CCNCC3)C(=O)Nc3ccccc32)c1 | HEP-2 | - | - | 9 µM |
| C[N+]1(C)CCN(c2cccc(N3CC[N+](C)(C)CC3)c2[N+](=O)[O-])CC1 | K562 | - | - | >330.4 µg/mL |
| COC(=O)[C@@H]1[C@H](c2cc(OC)c3nc4cc(Cl)c(Cl)cc4nc3c2)c2cc3c(cc2C2=NOC[C@@H]21)OCO3 | MEL-28 | - | - | >18 µM |
| CC[C@@H](C)[C@@H](N/C=C1\C(=O)C(O)C(C(C)C)=C2C=C(C)C(c3c(C)cc4c(C(C)C)c(O)c(O)c(C=N[C@H](C(=O)O)[C@@H](C)CC)c4c3O)=C(O)C21)C(=O)O.[Na+].[Na+] | GHOST | - | MTT | 26.48 µM |
| NC(=O)c1nn(Cc2cccc(NC(=O)c3cccc(F)c3)c2)c2ccccc12 | Huh7.5.1 | - | MTT | >10 µM |
| CC1C(=O)N(O)c2ncc(Br)cc2C1O | HepDES19 | 3 d | MTS | 69.3 µM |
| CC1=CC2=C(C(C)C)C(O)C(=O)/C(=C\N[C@H](CC(C)C)C(=O)O)C2C(O)=C1c1c(C)cc2c(C(C)C)c(O)c(O)c(C=N[C@@H](CC(C)C)C(=O)O)c2c1O.[Na+].[Na+] | GHOST | - | MTT | 43.66 µM |
| Nc1nc(Cl)nc2c1ncn2[C@@H]1O[C@H](CO)[C@@H](O)[C@H]1O | Sheep chondrocytes G81092 | - | MTT | <50 µM |
| CCCCCC(=O)O[C@H]1C[C@H](n2cc(/C=C/Br)c(=O)[nH]c2=O)O[C@@H]1COP1(=O)OCc2cccc(C)c2O1 | HELF | - | - | >128 µg/mL |
| COc1cc(OC)nc(NC(=S)NC(=O)c2cnc(Cl)c(Cl)c2)n1 | MDCK | - | MTS | >300 µM |
| OC[C@H]1O[C@@H](n2cnc3c(NC4CCCCCC4)nc(Cl)nc32)CC1O | Sheep chondrocytes G81092 | - | MTT | 98 µM |
| CC(C)(C)NC(=O)NC(=O)NC(=O)c1c(F)cccc1F | MDCK | - | MTS | >300 µM |
| NC(=O)c1nn(Cc2cccc(NC(=O)c3ccc(C(F)(F)F)cc3)c2)c2ccccc12 | Huh7.5.1 | - | MTT | 6.35 µM |
| NC(=O)CCNC(=O)c1ccccc1SC(=O)c1cccnc1 | MM | - | XTT | >100 µM |
| COc1cc([C@@H]2c3cc4c(cc3[C@H](OC(C)=O)[C@@H]3COC(=O)[C@@H]23)OCO4)cc2c1OC1(N3CCCC3)CCCCC1O2 | MEL-28 | - | - | 2.02 µM |
| O=C(NC(=S)Nc1nc(Cl)cc(Cl)n1)c1ccc(-c2ccccc2Cl)o1 | MDCK | - | MTS | >300 µM |
| COc1cc([C@@H]2c3cc4c(cc3[C@H](OC(C)=O)[C@@H]3COC(=O)[C@H]23)OCO4)cc2c1OCCO2 | HT-29 | - | - | 2.2 µM |
| O=c1c(Nc2ccccc2)cn(C2C=CC(O)C2)c(=O)n1C1C=CC(O)C1 | Huh7 cells | - | MTT | >50 µg/mL |
| OC[C@@H]1CC[C@H](n2cnc3c(NC4CC4)nc(Cl)nc32)O1 | Sheep chondrocytes G81092 | - | - | 180 µM |
| O=C(NC1N=C(c2ccccc2)c2ccccc2NC1=O)c1ccccn1 | HEP-2 | - | - | 6.4 µM |
| CCC(=O)O[C@H]1C[C@H](n2cc(/C=C/Br)c(=O)[nH]c2=O)O[C@@H]1COP1(=O)OCc2cccc(C)c2O1 | HELF | - | - | 91.5 µg/mL |
| O=C(NC1NC(c2ccccc2)(c2cccc(Cl)c2)c2ccccc2NC1=O)C1CCCCC1 | HEP-2 | - | - | 2 µM |
| OC[C@H]1O[C@@H](n2cnc3c(NC4CC4)nc(Cl)nc32)[C@H](O)[C@@H]1O | Sheep chondrocytes G81092 | - | - | 225 µM |
| O=Nc1c(-c2c(O)[nH]c3ccccc23)[nH]c2ccccc12 | PM1 | - | MTT | >4 µM |
| O=c1[nH]c(=O)n([C@H]2C[C@H](F)[C@@H](CO)O2)cc1/C(I)=C/I | PBM | - | - | 43 µM |
| Cc1nc(N2CC[N+]3(CC2)CC[N+]2(CCN(c4nc(C)nc5c4no[n+]5[O-])CC2)CC3)c2c(no[n+]2[O-])n1 | GMK | - | - | >837.1 µg/mL |
| CC(C)(C)NC(=O)NC(=O)NC(=O)c1ccccc1 | MDCK | - | MTS | >300 µM |
| CC1=CC2=C(C(C)C)C(O)C(=O)/C(=C\N[C@@H](C(=O)O)C(C)C)C2C(O)=C1c1c(C)cc2c(C(C)C)c(O)c(O)c(C=N[C@H](C(=O)O)C(C)C)c2c1O.[Na+].[Na+] | GHOST X4/R5 | - | MTT | 44.3 µM |
| CN1CCc2cc3c(cc2[C@@H]1[C@@H]1OC(=O)c2c1ccc1c2OCO1)OCO3 | KB cells | - | - | >20 µg/mL |
| OC[C@H]1O[C@@H](n2cnc3c(NC4CC4)ncnc32)[C@H](O)[C@@H]1O | Sheep chondrocytes G81092 | - | - | 105 µM |
| Cc1nc(C2CCCCCC2)c([N+](=O)[O-])c(N2CC[N+]3(CC2)CC[N+]2(CCN(c4nc(C)nc(C5CCCCCC5)c4[N+](=O)[O-])CC2)CC3)n1 | L929 | - | - | >261.2 µg/mL |
| COC(=O)[C@H]1[C@@H]2CON=C2c2cc3c(cc2[C@H]1C1=CC(=O)C(=O)C(OC)=C1)OCO3 | HT-29 | - | - | 12 µM |
| CC(C)=CCCc1ccc2c(c1)C(=O)C(N1CCCC1)=CC2=O | Human fibroblast 2C4 | - | MTT | 324 µM |
| [N-]=[N+]=N[C@H]1C[C@H](n2cc(/C(Cl)=C\I)c(=O)[nH]c2=O)O[C@@H]1CO | PBM | - | - | 23.8 µM |
| Cc1cccc2c1OP(=O)(OC[C@H]1O[C@@H](n3cc(/C=C/Br)c(=O)[nH]c3=O)C[C@@H]1OC(=O)[C@@H](N)C(C)C)OC2 | HELF | - | - | 70.4 µg/mL |
| OC[C@H]1O[C@@H](n2cnc3c(NC4CC4)cc(Cl)nc32)C[C@@H]1O | Sheep chondrocytes G81092 | - | - | 236 µM |
| COC(=O)c1ccc(C(=O)NC2N=C(c3ccccc3)c3ccccc3NC2=O)c(OC)c1 | HEP-2 | - | - | 9.2 µM |
| C[N+]1(C)CCN(c2ncnc(Cl)c2[N+](=O)[O-])CC1 | GMK | - | - | >500.5 µg/mL |
| COc1cc([C@@H]2c3cc4c(cc3[C@H](OC(C)=O)[C@@H]3COC(=O)[C@@H]23)OCO4)cc2nc3cc(C)c(C)cc3nc12 | HT-29 | - | - | 4.8 µM |
| Cc1cccc2c1OP(=O)(OC[C@H]1O[C@@H](n3cc(/C=C/Br)c(=O)[nH]c3=O)C[C@@H]1OC(=O)C(C)C)OC2 | HELF | - | - | 73.7 µg/mL |
| CN1CCN(C(=O)NC(=O)C2N=C(c3ccccc3)c3ccccc3NC2=O)CC1 | VERO | - | - | 25 µM |
| COc1cc2c(cc1O)[C@@H]1Cc3ccc(OC)c(O)c3CN1CC2 | KB cells | - | - | >20 µg/mL |
| NC(=O)c1nn(Cc2cccc(NC(=O)c3cccnc3)c2)c2ccccc12 | Huh7.5.1 | - | MTT | >10 µM |
| O=[N+]([O-])c1c(Cl)ncnc1N1CC[N+]2(CC1)CC[N+]1(CCN(c3ncnc(Cl)c3[N+](=O)[O-])CC1)CC2 | K562 | - | - | 111.5 µg/mL |
| OC[C@@H]1C[C@@H](O)[C@H](n2cnc3c(NC4CCCCCC4)ccnc32)O1 | Sheep chondrocytes G81092 | - | - | 210 µM |
| COc1cc(Cl)nc(NC(=O)NC(=O)c2c(F)cccc2F)n1 | MDCK | - | MTS | >300 µM |
| CC1=CC2=C(C(C)C)C(O)C(=O)/C(=C\NC(C)(C)C(=O)O)C2C(O)=C1c1c(C)cc2c(C(C)C)c(O)c(O)c(C=NC(C)(C)C(=O)O)c2c1O.[Na+].[Na+] | GHOST X4/R5 | - | MTT | 53.27 µM |
| Cc1ccc(Nc2c[nH]c(=O)[nH]c2=O)cc1 | Vero cells | - | MTT | >50 µg/mL |
| ClCN1CC[N+]2(CC1)CC[N+]1(CCN(CCl)CC1)CC2 | GMK | - | - | >507.4 µg/mL |
| O=c1[nH]c(=O)n(C2C=CC(O)C2)cc1Nc1ccc(Oc2ccccc2)cc1 | A549 cells | - | MTT | >50 µg/mL |
| O=c1[nH]cnc2c1ncn2[C@H]1CC[C@@H](CO)O1 | HELA-CD4+ | - | - | 2.3 µM |
| [N-]=[N+]=N[C@H]1C[C@H](n2cc(/C(I)=C\I)c(=O)[nH]c2=O)O[C@@H]1CO | PBM | - | - | 18.6 µM |
| O=C(/C=C/c1ccc(Cl)cc1)Nc1n[nH]c(-c2ccccc2)n1 | VERO Cell line | - | MTT | 1280 µM |
| COc1cc(C)nc(NC(=S)NC(=O)c2ccc(Cl)nc2)n1 | MDCK | - | MTS | >300 µM |
| Cc1cccc2c1OP(=O)(OC[C@H]1O[C@@H](n3cc(/C=C/Br)c(=O)[nH]c3=O)C[C@@H]1OC(=O)[C@@H](C)N)OC2 | HELF | - | - | >128 µg/mL |
| NC(=O)c1nn(Cc2cccc(NC(=O)Cc3ccccc3)c2)c2ccccc12 | Huh7.5.1 | - | MTT | >10 µM |
| Nc1ncnc2c1ncn2[C@@H]1O[C@H](CO)C[C@@H]1O | TR-14 | - | - | >50 µg/mL |
| CC(C)(C)NC(=O)NC(=S)NC(=O)COc1ccc(Cl)cc1Cl | MDCK | - | MTS | >300 µM |
| Cc1cccc2c1OP(=O)(OC[C@H]1O[C@@H](n3cc(/C=C/Br)c(=O)[nH]c3=O)C[C@@H]1OC(=O)[C@H](C)N)OC2 | HELF | - | - | >128 µg/mL |
| O=C(O)P(=O)(O)O | U373-MG | - | - | 145 µg/mL |
| CCCCc1ccc(Nc2c[nH]c(=O)[nH]c2=O)cc1 | Vero cells | - | MTT | >50 µg/mL |
| COc1cc2c(c3oc(=O)c4c(c13)CCC4=O)[C@H]1C[C@H](OC(C)=O)O[C@H]1O2 | L-02 | - | - | 6.4 µM |

A second listing of 4 rows from above:

smiles,cell line,setting,method,value
O=c1c(Nc2ccccc2)cn(C2C=CC(O)C2)c(=O)n1C1C=CC(O)C1,Huh7 cells,-,MTT,>50 µg/mL
CCCCCC(=O)O[C@H]1C[C@H](n2cc(/C=C/Br)c(=O)[nH]c2=O)O[C@@H]1COP1(=O)OCc2cccc(C)c2O1,HELF,-,-,>128 µg/mL
Cc1nc(C2CCCCCC2)c([N+](=O)[O-])c(N2CC[N+]3(CC2)CC[N+]2(CCN(c4nc(C)nc(C5CCCCCC5)c4[N+](=O)[O-])CC2)CC3)n1,L929,-,-,>261.2 µg/mL
CC1=CC2=C(C(C)C)C(O)C(=O)/C(=C\N[C@@H](C(=O)O)C(C)C)C2C(O)=C1c1c(C)cc2c(C(C)C)c(O)c(O)c(C=N[C@H](C(=O)O)C(C)C)c2c1O.[Na+].[Na+],GHOST X4/R5,-,MTT,44.3 µM